These results are taken from patent US20110251085A1, “IN VITRO METHOD TO DETERMINE WHETHER A DRUG CANDIDATE ACTIVE AGAINST A TARGET PROTEIN IS ACTIVE AGAINST A VARIANT OF SAID PROTEIN” (VIVALIS, priority 2008, published 2011).

Assay [1] addresses single chain NS4A-NS3 full length protein (native) fused to the yeast Gal4 DBD (pVVS772) (yeast; hepatitis C virus genotype 1b), P26662. Description: cell-based or functional assay.
In assay [2] the target is single chain NS4A-NS3 protease (native) fused to the yeast Gal4 DBD (pVVS602) (yeast; hepatitis C virus genotype 1b), P04386. Briefly: cell-based or functional assay.

B1: 3D-sensor H5-34 fused to the VP16 activation domain (peptide)
chain: PSNHRQSTRSTPWLW
modifications: not checked
B1 showed a luciferase activity over background without the 3D sensor-VP16AD (times background) in assay [1] of 42.

B2: 3D-sensor V7-62 fused to the VP16 activation domain (peptide)
chain: WRPYYTVLCALASWH
modifications: not checked
In assay [2], B2 registered a luciferase activity over background without the 3D sensor-VP16AD (times background) of 80.
